Anti-infective test results gathered from many reports (values: NIAID ChemDB through PubChem).

Common to all: whole-cell or culture tests; organism: Aspergillus fumigatus; measure: MIC

Lines come from different laboratories, so protocols vary. a–b is a range or a potency band. An empty or dashed field is not shown.

smiles,strain,value
O=Cc1cc(-c2ccc(F)cc2)no1,Clinical isolates,50 µg/mL
Oc1ccc(C(=S)Nc2ccc(I)cc2)c(O)c1,-,62.5 µg/mL
COC12OC1(C13OC1(OC)C(=O)c1cc4cc(C)oc(=O)c4c(O)c1C3O)C(O)c1c(cc3cc(C)oc(=O)c3c1O)C2=O,IFO8866,>100 µg/mL
Cc1ccc(CC(=O)Nc2nc(-c3cccc(Cl)c3)cs2)cc1,NCIM 902,12.5 µg/mL
C[C@H]1[C@H](O)[C@@H](C)/C=C/C=C/C=C/C=C/C=C/C=C/C=C/[C@H](O[C@@H]2O[C@H](C)[C@@H](O)[C@H](N)[C@@H]2O)C[C@@H]2O[C@](O)(C[C@@H](O)C[C@@H](O)CC[C@H](O)[C@@H](O)C[C@@H](O)CC(=O)O[C@H]1C)C[C@H](O)[C@H]2C(=O)O,X807219,1 µg/mL
CC(=O)[C@]1(O)Cc2c(O)c3c(c(O)c2[C@@H](O[C@H]2C[C@H](N)[C@H](O)[C@H](C)O2)C1)C(=O)c1ccccc1C3=O,NCPF 2010,>100 µM
Cc1onc(-c2ccc(OCc3ccccc3)cc2)c1C=O,Clinical isolates,>50 µg/mL
CC(=O)Oc1c(Cl)cccc1C(=O)Nc1ccc(Cl)c(Cl)c1,231,15.63 µg/mL
Cc1nc(N)nc(N)c1C#CC1CCCC1,-,6.2 µg/mL
CCOC(=O)C1CC([C@H]2O[C@@H]3OC(C)(C)O[C@@H]3[C@H]2OCc2ccccc2)=NO1,-,>50 µg/mL
CCOC(=O)C1=C(C)NC(C)=C(C(=O)OCC)C1c1cccc(O)c1,-,>1000 µg/mL
C=C1CC(C/C(C)=C/COc2ccc3ccc(=O)oc3c2)OC1=O,MTCC 6594,625 µg/mL
COc1ccc2c(c1OC)CN1CCc3cc4c(cc3C1=C2)OCO4,ATCC 16424,>128 µg/mL
CCOC(=O)C1=C(C)NC(C)=C(C(=O)OCC)C1c1cccc(OCC(O)CCl)c1,-,500 µg/mL
Cc1nc(N)nc(N)c1C#CC(C)C,-,12.5 µg/mL
CC1(C)O[C@H]2O[C@H](C3=NOC(CBr)C3)[C@H](OCc3ccccc3)[C@H]2O1,-,>50 µg/mL
COc1ccc(C2=NN(Cc3n[nH]c(=S)n3-c3ccc(Br)cc3)C(=O)CC2)cc1,-,10 µg/mL
O=C(Nc1c(F)cccc1F)OCCCN1CCN(c2nc3ccccc3s2)CC1,CF1083,1.1 µg/mL
CO[C@@H]1[C@H]2OC(C)(C)O[C@H]2O[C@@H]1C1=NOC(CO)C1,-,>50 µg/mL
Cc1cccc(/C=N\N(C)Cc2cccc3ccsc23)c1,-,>64 µg/mL
COC(=O)[C@H]1[C@@H]2C[C@@H](O[C@@H]3O[C@H](C)[C@@H](O)[C@H](N)[C@@H]3O)/C=C/C=C/C=C/C=C/C=C/C=C/C=C/[C@H](C)[C@@H](O)[C@H](C)[C@H](C)OC(=O)C[C@H](O)C[C@H](O)[C@@H](O)CC[C@H](O)C[C@H](O)C[C@](O)(C[C@@H]1O)O2,NCPF 2010,0.48 µM
C[C@@H](N1CCN(c2ccc(C(F)(F)F)cc2)C1=O)C(O)(Cn1cncn1)c1ccc(F)cc1F,437,1 µg/mL
C=C1/C=C(\C)[C@H](CC)OC(=O)[C@H](C)C(=O)C(O)(CO)C/C(OC)=C/[C@@H](C)C1,MF5668,>200 µg/mL
Oc1ccc(C(=S)Nc2ccc(Cl)cc2)c(O)c1,-,62.5 µg/mL
CO[C@@H]1[C@H]2OC(C)(C)O[C@H]2O[C@@H]1C1=NOC(C#N)C1,-,>50 µg/mL
COC(=O)Cc1csc(NC(=O)Cc2cccc(OC)c2)n1,NCIM 902,6.25 µg/mL
Cc1ccc(C2=NN(Cc3n[nH]c(=S)n3-c3ccc(Br)cc3)C(=O)CC2)cc1,-,8 µg/mL
CN(Cc1cccc2ccsc12)/N=C\C#CC(C)(C)C,-,>64 µg/mL
Cc1ccc(C(C)C)c(O)c1,F05,0.16 µg/mL
COc1cc(O)c2c(c1)C(=O)c1c(cc3c(c1O)-c1c(cc(C)c(C(=O)NC(C)C(=O)O)c1O)[C@H](OC1OC(C)C(N(C)C(=O)C(CO)(CO)CO)C(OC4OCC(O)C(O)C4O)C1O)[C@H]3O)C2=O,IAM2034,>100 µg/mL
CCOC(=O)C1=C(C)NC(C)=C(C(=O)OCC)C1c1ccc(Br)cc1,-,500 µg/mL
COc1ccc(-n2nc(-c3ccn[nH]3)sc2=NC(=O)c2ccccc2)cc1,002003,14.1 µg/mL
CCCCCOc1ccc(-c2ccc(-c3ccc(C(=O)N[C@H]4C[C@@H](O)[C@@H](O)NC(=O)[C@@H]5[C@@H](O)[C@@H](C)CN5C(=O)[C@H]([C@H](C)O)NC(=O)[C@H]([C@H](O)[C@@H](O)c5ccc(O)cc5)NC(=O)[C@@H]5C[C@@H](O)CN5C(=O)[C@H]([C@H](C)O)NC4=O)cc3)cc2)cc1,93-19,>50 µg/mL
Oc1ccc(C(=S)Nc2ccc(F)cc2)c(O)c1,-,125 µg/mL
O=C1CCC(c2ccc(Cl)cc2)=NN1Cc1n[nH]c(=S)n1-c1ccc(Cl)cc1,-,3 µg/mL
C[C@@H](n1ccn(-c2ccc(F)cc2)c1=O)C(O)(Cn1cncn1)c1ccc(F)cc1F,TIMM1728,8 µg/mL
COC(=O)C1=C(C)NC(C)=C(C(=O)OC)C1c1cccc(O)c1,-,500 µg/mL
Oc1ccc(C(=S)Nc2cccc(F)c2)c(O)c1,-,31.25 µg/mL
COc1cc(O)c2c(c1)C(=O)c1c(cc3c(c1O)-c1c(cc(C)c(C(=O)NC(C)C(=O)O)c1O)[C@H](OC1OC(C)C(N(C)C(=O)CCC(=O)O)C(OC4OCC(O)C(O)C4O)C1O)[C@H]3O)C2=O,IAM2034,>100 µg/mL
COC(=O)C1CC([C@H]2O[C@@H]3OC(C)(C)O[C@@H]3[C@H]2OCc2ccccc2)=NO1,-,>50 µg/mL
CCC(C)n1ncn(-c2ccc(N3CCN(c4ccc(OC[C@H]5CO[C@](Cn6cncn6)(c6ccc(Cl)cc6Cl)O5)cc4)CC3)cc2)c1=O,MF5668,0.25 µg/mL
CC1(C)O[C@H]2[C@@H](O1)[C@@H](C1=NOC(Cc3ccc(O)cc3)C1)O[C@@H]1OC(C)(C)O[C@@H]12,-,>50 µg/mL
C[C@@H](N1CCN(c2ccc(OCC(F)(F)C(F)F)cc2)C1=O)C(O)(Cn1cncn1)c1ccc(F)cc1F,IFO6344,0.5 µg/mL
CC(=O)Oc1cc(Cl)ccc1C(=O)Nc1cccc(Cl)c1,231,7.81 µg/mL
C[C@H]1[C@H](O)[C@@H](C)/C=C/C=C/C=C/C=C/C=C/C=C/C=C/[C@H](O[C@@H]2O[C@H](C)[C@@H](O)[C@H](N)[C@@H]2O)C[C@@H]2O[C@](O)(C[C@@H](O)C[C@@H](O)CC[C@H](O)[C@@H](O)C[C@@H](O)CC(=O)O[C@H]1C)C[C@H](O)[C@H]2C(=O)O,-,80 µg/mL
Cc1ccc(C2=NN(Cc3n[nH]c(=S)n3-c3ccc(Cl)cc3)C(=O)CC2)cc1,-,8 µg/mL
Cc1csc(NC(=O)COc2ccc(C)c(C)c2)n1,NCIM 902,12.5 µg/mL
CN(Cc1cccc2ccsc12)/N=C\c1ccccc1,-,>64 µg/mL
COc1ccc(NC(=S)c2ccc(O)cc2O)cc1,-,500 µg/mL
C[C@@H](n1ccn(-c2ccc(OC(F)(F)F)cc2)c1=O)C(O)(Cn1cncn1)c1ccc(F)cc1F,IFO6344,2 µg/mL
C[C@H]1[C@H](O)[C@@H](C)/C=C/C=C/C=C/C=C/C=C/C=C/C=C/[C@H](O[C@@H]2O[C@H](C)[C@@H](O)[C@H](N)[C@@H]2O)C[C@@H]2O[C@](O)(C[C@@H](O)C[C@@H](O)CC[C@H](O)[C@@H](O)C[C@@H](O)CC(=O)O[C@H]1C)C[C@H](O)[C@H]2C(=O)O,5 isolates,1.25–2.5 µg/mL
COc1cc(O)c2c(c1)C(=O)c1c(cc3c(c1O)-c1c(cc(C)c(C(=O)NC(C)C(=O)O)c1O)[C@H](OC1OC(C)C(N(C)C/C=C/C(=O)O)C(OC4OCC(O)C(O)C4O)C1O)[C@H]3O)C2=O,IAM2034,6.3 µg/mL
O=Cc1cc(-c2ccc(F)cc2)on1,Clinical isolates,>50 µg/mL
CCOC(=O)C1=C(C)NC(C)=C(C(=O)OCC)C1c1ccc(OC)c(O)c1,-,500 µg/mL
CCOC1CC([C@H]2O[C@@H]3OC(C)(C)O[C@@H]3[C@H]2OCc2ccccc2)=NO1,-,>50 µg/mL
CC(/C=C/C=C(\C)C(O)C(C)C(=O)O[C@H]1C[C@@H](C)C=C2C=C[C@]3(C)O[C@@H](O)CC(=O)[C@]3(C)[C@H]21)=C\C=C\C(=O)O,AC3446,50 µg/mL
O=C1CCC(c2ccccc2)=NN1Cc1n[nH]c(=S)n1-c1ccccc1,-,4 µg/mL
O=C(N=c1sc(-c2ccnc3ncnn23)nn1-c1ccc(Cl)cc1)c1ccccc1,002003,31.3 µg/mL
Cc1cccc(CC(=O)Nc2nc(C)cs2)c1,NCIM 902,12.5 µg/mL
Cc1ccc(-n2nc(-c3ccnc4nc5ccccc5n34)sc2=NC(=O)c2ccccc2)cc1,002003,15.6 µg/mL
CC1(C)O[C@H]2O[C@H](C3=NOC(Cc4ccc(O)cc4)C3)[C@H](OCc3ccccc3)[C@H]2O1,-,>50 µg/mL
CC(=O)Oc1cc(Cl)ccc1C(=O)Nc1ccc(Cl)cc1,231,7.81 µg/mL
CCC(C)CC(C)CCCCCCCCC(=O)N[C@H]1C[C@@H](O)[C@H](NCCN)NC(=O)[C@@H]2[C@@H](O)CCN2C(=O)[C@H]([C@H](O)CCN)NC(=O)[C@H]([C@H](O)[C@@H](O)c2ccc(O)cc2)NC(=O)[C@@H]2C[C@@H](O)CN2C(=O)[C@H]([C@@H](C)O)NC1=O,71 strains,0.53 µg/mL
COc1cc(O)c2c(c1)C(=O)c1c(cc3c(c1O)-c1c(cc(C)c(C(=O)NC(C)C(=O)O)c1O)[C@H](OC1OC(C)C(N(CC(=O)O)CC(=O)O)C(OC4OCC(O)C(O)C4O)C1O)[C@H]3O)C2=O,IAM2034,>100 µg/mL
O=C1CCC(c2ccc(Cl)cc2)=NN1Cc1n[nH]c(=S)n1-c1ccc(Br)cc1,-,5 µg/mL
Cc1nc(N)nc(N)c1C#CC(C)(C)C,-,12.5 µg/mL
C[C@@H](N1CCN(c2ccc(OC(F)(F)C(F)F)cc2)C1=O)C(O)(Cn1cncn1)c1ccc(F)cc1F,437,0.25 µg/mL
CCC(C)C#Cc1c(C)nc(N)nc1N,-,6.2 µg/mL
C/C=C/C=C(/C)C(=O)O[C@H]1[C@H](O)[C@H](OCC23C4C=C(C(C)C)C2(C(=O)O)C(C=O)(C4)[C@@H]2CC[C@@H](C)[C@H]23)O[C@H](C)[C@H]1OC,48238,>125 µg/mL
CC(=O)Oc1cc(Cl)ccc1C(=O)Nc1ccc(Br)cc1,231,7.81 µg/mL
O=[N+]([O-])c1ccc(NC(=S)c2ccc(O)cc2O)c(O)c1,-,500 µg/mL
CC(N1CCN(c2ccc(-n3cnnn3)cc2)C1=O)[C@@](O)(Cn1cncn1)c1ccc(F)cc1F,IFO6344,>64 µg/mL
CC(=O)Oc1cc(Cl)ccc1C(=O)N(C(C)=O)c1ccc(Br)cc1,231,≤31.25 µg/mL
O=Cc1cc(-c2c(Cl)cccc2Cl)no1,Clinical isolates,>50 µg/mL
Oc1ccc(C(=S)Nc2ccc(F)c(Cl)c2)c(O)c1,-,62.5 µg/mL